Results published in the supplement of paper PMC11865577.

Legend:
Assay in all cases: pull-down binding Z-score (relative to library population); higher = stronger binding
Details in all cases: RNA library: Library-2
[1] = tested on: TO-3-N3 (biotin conjugate)
Summary of the method: (§1)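 To score binding, a beads-only signal was subtracted, barcoded replicate probes were averaged with the highest and lowest dropped, and the value was converted to a Z-score using the library mean and standard deviation. The input was 1 μg of Cy5- or Cy3-end-labelled RNA library, heat-folded in phosphate/NaCl/KCl buffer and mixed for 60 min at 25 °C with streptavidin beads carrying 100 pmol of biotin-conjugated small molecule. Bound RNA was eluted in hot SDS and hybridised to a DNA barcode microarray at 55.5 °C for 20 h.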

[2] = tested on: TO-3-N3-2 (biotin conjugate)
Summary of the method: as §1

TO-N3 (biotin conjugate) = tested on: TO-N3 (biotin conjugate)
Summary of the method: as §1

[3] = tested on: TO-N3-2 (biotin conjugate)
Summary of the method: as §1

Row | Sequence | pull-down binding Z-score [1] | pull-down binding Z-score [2] | pull-down binding Z-score (TO-N3 (biotin conjugate)) | pull-down binding Z-score [3]
1 | AGAUACUACUGAAGCCUUUGAAAAAAUGGUUUCACUACUUUCU [SHAPE_invivo_SARS-CoV-2_Motif_226] | -0.232 | -0.49 | -0.383 | -0.963
2 | ACUGAAAGUAAACCUUCAGU [SHAPE_invitro_SARS-CoV-2_Motif_71] | -0.852 | -0.536 | -1.19 | -1.05
3 | UUUAACUUCUAUUAAAUGGGCAGAUAACAACUGUUAUCUUGCCACUGCAUUGUUAACACUCCAACAAAUAGAGUUGAA | 0.27 | 0.0917 | 0.142 | -0.68
4 | ACUAUAACACAUAUAAAAAUACGUGUGAUGGU | -1.06 | -0.578 | -1.42 | -1.59
5 | UUGUUGUGAUGAUGAUUAUUUCAAUAA | -1.18 | -0.219 | -1.15 | -0.899
6 | UUUUGAUGGUAAAUCAAAA | -0.409 | -0.628 | -0.864 | -1.43
7 | AGCCAUCCUUACUGCGCU [DMSMaPseq_invitro_SARS-CoV-2_Motif_473] | -0.674 | -0.379 | -0.487 | 0.261
8 | AGAGAAUUACAUCU [SHAPE_invivo_SARS-CoV-2_Motif_316] | 0.112 | -0.281 | -0.156 | -1.04
9 | AGGACUUGUUCUUACCUUUCUUUUCCAAUGUUACUUGGUUCCAUGCUAUACAUGUCUCUGGGACCAAUGGUACUAAGAGGUUUGAUAACCCUGUCCU [DMSMaPseq_invitro_SARS-CoV-2_Motif_382] | 0.181 | -0.233 | -0.058 | -0.582
10 | UUGCUAUUCAUGCAG [SHAPE_invitro_SARS-CoV-2_Motif_425] | 0.339 | 0.498 | 0.334 | -0.217
11 | AGAAAUCAAUACUGAGUCCUCUUUAUGCAUUUGCAUCAGAGGCUGCUCGUGUUGUACGAUCAAUUUUCU [DMSMaPseq_invitro_SARS-CoV-2_Motif_37] | 0.44 | 0.157 | 0.279 | -0.223
12 | AGCCUUGUAGUGACAAAGCU [DMSMaPseq_invitro_SARS-CoV-2_Motif_339] | 0.956 | 0.116 | 0.833 | -0.266
13 | AGCUUUUUGCAGCAGAAACGCUCAAAGCU [SHAPE_invivo_SARS-CoV-2_Motif_314] | -0.324 | -0.189 | -0.206 | -0.327
14 | ACUAACAUAGU [SHAPE_invitro_SARS-CoV-2_Motif_134] | -0.305 | -0.605 | -0.7 | -1.5
15 | AGCUAUAGCCUCAGAGUUUAGUUCCCUUCCAUCAUAUGCAGCUUUUGCUACUGCUCAAGAAGCUUAUGAGCAGGCUGUUGCU [SHAPE_invivo_SARS-CoV-2_Multi_31_ComplexLevel_1] | -0.491 | 0.194 | -0.142 | 0.316
16 | UUGGAUGACAAAGAUCCAA | -0.56 | -0.741 | -1.01 | -1.13
17 | AGCCUCAAAGAUUUUGGGACUACCAACUCAAACUGUUGAUUCAUCACAGGGCU | -0.34 | 0.0042 | -0.349 | -0.27

Row | Sequence | pull-down binding Z-score [1] | pull-down binding Z-score [2] | pull-down binding Z-score (TO-N3 (biotin conjugate)) | pull-down binding Z-score [3]
18 | AGCUGGUUUUGCU [SHAPE_invitro_SARS-CoV-2_Motif_247] | -0.688 | -0.261 | -1.15 | -1.27
19 | UUGGUGAGUCCGAUACUUACCUG [U1snRNP5ss-15] | 0.638 | -0.312 | 0.333 | -0.07
20 | AGAUAUUACUAAUUAUUAUGAGGACUUUUAAAGUUUCCAUUUGGAAUCUUGAUUACAUCAUAAACCUCAUAAUUAAAAAUUUAUCU | -0.532 | 0.0434 | -0.706 | -0.725
21 | AGGGGUGUAUACUGCUGCCGUGAACAUGAGCAUGAAAUUGCUUGGUACACGGAACGUUCUGAAAAGAGCUAUGAAUUGCAGACACCUUU [SHAPE_invivo_SARS-CoV-2_Multi_2_ComplexLevel_1] | 1.1 | 0.713 | 1.22 | 0.407
22 | AGGAAGAGAAUCAGCAACUGUGUUGCUGAUUAUUCUGUCCU [SHAPE_invivo_SARS-CoV-2_Motif_426] | -0.696 | -0.489 | -1.02 | -0.637
23 | UUGCCAACCAAUUUAAUAGUGCUAUUGGCAA | -0.641 | -0.209 | -1.1 | -0.771
24 | AGAGAUCGCCAUUAUUUUGGCAUCUUU [SHAPE_invivo_SARS-CoV-2_Motif_33] | -0.338 | -0.287 | -0.607 | -1.09
25 | AGGACCUGAGCAUAGUCUUGCCGAAUACCAUAAUGAAUCUGGCUUGAAAACCAUUCUUCGUAAGGGUGGUCGCACUAUUGCCUUUGGAGGCUGUGUGUUCU [SHAPE_invitro_SARS-CoV-2_Multi_5_ComplexLevel_1] | 0.412 | 0.0935 | 0.567 | 0.283
26 | ACUAUUGUAUACCUUACAAUAGU | -0.962 | -0.514 | -1.36 | -1.86
27 | AGAUCGCCAUUAUUUUGGCAUCU | -0.13 | -0.218 | -0.432 | -1.2
28 | AGAUGGAAUUUCACAGUAUUCACUGAGACUCAUUGAUGCUAUGAUGUUCACAUCU [SHAPE_invitro_SARS-CoV-2_Motif_39] | -0.431 | -0.204 | -0.347 | -0.722
29 | UUGCAAACUACACAAUUGGAAUUGUGUUAAUUGUGA [SHAPE_invivo_SARS-CoV-2_Motif_155] | -0.32 | -0.44 | -0.572 | -1.49
30 | AGAAAGACAAUUCU | 0.387 | -0.225 | 0.0897 | -0.466
31 | AGAGCUGCAGAAAUCAGAGCUUCUGCUAAUCU [DMSMaPseq_invitro_SARS-CoV-2_Motif_438] | -0.836 | -0.314 | -0.836 | -0.245
32 | AGGAAGGAAGUUCUGUUGAAUUAAAACACUUCUUCUUUGCU | -0.495 | -0.171 | -0.673 | -0.505
33 | UUGUUACGAUGGUGGCUGUAUUAAUGCUAACCAAGUCAUCGUCAACAA | -0.368 | 0.0036 | -0.0931 | 0.952
34 | ACUGUUUGUGGACCUAAAAAGUCUACUAAUUUGGU [DMSMaPseq_invitro_SARS-CoV-2_Motif_410] | -0.536 | -0.426 | -0.733 | -1.17
